Construct, isoform or probe ends are uncertain for at least one entry. At least one result comes from cells or an extract, where the contact may be indirect. For some assays here: At least one verdict was read from the data and is not stated in words by the source. Protein sequences can lack the tags named with them.

From paper PMC3219715 come the findings set out here.

The target in data set [1] is T1, IRF2 (UniProt P23906).
T1 sequence (looked up, limits assumed): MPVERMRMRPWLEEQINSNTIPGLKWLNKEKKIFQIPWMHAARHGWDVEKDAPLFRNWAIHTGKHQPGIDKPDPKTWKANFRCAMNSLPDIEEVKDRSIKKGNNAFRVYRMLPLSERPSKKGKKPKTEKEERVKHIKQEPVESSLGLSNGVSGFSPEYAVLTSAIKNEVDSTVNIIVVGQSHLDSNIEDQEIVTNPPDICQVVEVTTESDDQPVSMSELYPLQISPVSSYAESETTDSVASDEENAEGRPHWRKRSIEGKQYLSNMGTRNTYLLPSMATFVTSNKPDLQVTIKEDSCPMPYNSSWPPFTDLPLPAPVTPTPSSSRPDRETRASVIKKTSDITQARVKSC
Briefly: EMSA supershift. The following applies: two anti-IRF2 antisera, complex not formed with IRF2-/- extract; 40 mM KCl, 20 mM HEPES pH 7.6, 1 mM MgCl2, 1 mM EGTA, 0.5 mM DTT, 0.32 mg/ml poly dI-dC, 0.02 mg/ml plasmid pGL4.10, 4 mM AMP, 5 ug extract in 12.5 ul; protein in an extract; label: 32P (unlabeled as competitor). For orientation: In EMSA bound probe runs differently from free probe, usually more slowly.

The target of data set [2] is T1, IRF2. As to the kind of experiment: competition with a labelled probe. The following applies: excess unlabeled M2 ISRE inhibits complex formation on labeled M2 ISRE; 40 mM KCl, 20 mM HEPES pH 7.6, 1 mM MgCl2, 1 mM EGTA, 0.5 mM DTT, 0.32 mg/ml poly dI-dC, 0.02 mg/ml plasmid pGL4.10, 4 mM AMP, 5 ug extract in 12.5 ul; protein in an extract; label: 32P (unlabeled as competitor).

Turning to “TTACCTGAAAACGAAACCTCATCA (double strand) [M2 ISRE]”, the binding result in data set [1] and in data set [2] was “binds” throughout.
